Reference: ChEMBL document CHEMBL4765469, “2-((3,5-Dinitrobenzyl)thio)quinazolinones: Potent Antimycobacterial Agents Activated by Deazaflavin (F)-Dependent Nitroreductase (Ddn)” (J Med Chem, 2021)

System: MRC5
Assay: Cytotoxicity in human MRC5 cells by neutral red uptake assay
Assay type: cell-based

**Q.** How did the CC50 turn out when O=c1[nH]c(SCc2cc([N+](=O)[O-])cc([N+](=O)[O-])c2)nc2ccc([N+](=O)[O-])cc12 was run?
**A.** Its CC50 is 34 µM.
